Measured values as given in patent publication US20110178092A1, “HIV-1 Protease Inhibitors” (priority 2005, published 2011).
pKi: −log10 of the molar value.

Legend:
[1] = biological target: HIV-1 protease MDR mutant M1 (L10I, G48V, I54V, L63P, V82A) (Human immunodeficiency virus type 1 group M subtype B, UniProt P04585, G536V/I542V/L498I/L551P/Q495K/V570A); assay: biochemical
Source text: (§1) The mutant variants were selected by examining the Stanford HIV-1 Drug Resistance Database (http://hivdb.stanford.edu) of HIV-1 infected-patient sequences of viral isolates. […] (Wu, T. D. et al. J. Virol. 2003, 77, 4836-4847.) These MDR mutant variants are L10I, G48V, I54V, L63P, V82A (M1), D30N, L63P, N88D (M2), and L10I, L63P, A71V, G73S, I84V, L90M (M3).
(§2) The energy transfer donor (EDANS) and acceptor (DABCYL) were labeled at its two ends respectively to perform FRET. Fluorescence measurements were carried out on PTI fluorescence spectrophotometer (Photon Technology International) at 30° C. Excitation and emission wavelengths were set at 340 nm and 490 nm, respectively. Each reaction was recorded for about 10 min. Wide type HIV-1 protease (Q7K) and its MDR mutants M1 (L10I, G48V, I54V, L63P, V82A), M2 (D30N, L63P, N88D), and M3 (L10I, L63P, A71V, G73S, I84V, L90M) were desalted through PD-10 columns (Amersham Biosciences). Sodium Acetate (20 mM, pH 5) was used as elution buffer. Apparent protease concentrations were around 50 nM estimated by UV spectrophotometer (Shimadzu) at 280 nm. All inhibitors were dissolved in DMSO and diluted to appropriate concentrations. Protease (2 μL) and inhibitor (2 μL) or DMSO were mixed and incubated for 20-30 min at room temperature before initialing substrate cleavage reaction. Throughout this work, 150 μL of 1 μM substrate was used. […]

[2] = biological target: HIV-1 protease MDR mutant M2 (D30N, L63P, N88D) (Human immunodeficiency virus type 1 group M subtype B, UniProt P04585, D518N/L551P/N576D/Q495K); assay: biochemical
Source text: as §1, §2

COc1ccc(S(=O)(=O)N(CC(C)C)C[C@@H](O)[C@H](Cc2ccccc2)NC(=O)[C@@H]2CN(c3cccc(C(C)=O)c3)C(=O)O2)cc1 [21e, (5S)-3-(3-Acetylphenyl)-N-[(1S,2R)-1-benzyl-2-hydroxy-3-[isobutyl[(4-methoxyphenyl)-sulfonyl]amino]propyl]-2-oxo-oxazolidine-S-carboxamide]
pKi [1]: 9.80
pKi [2]: 10.41
